Consider one substance from patent US20080274134A1.

Experiment [1] concerns the target HIV-1MN envelope glycoprotein (full length gp160MN) on pseudovirus (HIV-1 MN) (UniProt P05877). Put plainly: cell-based or functional assay.
The target in experiment [2] is HIV-1JR-FL envelope glycoprotein (full-length gp160) on virus particles (HIV-1 JR-FL). Put plainly: cell-based or functional assay.

In experiment [1], “CD4-immunoglobulin G2 (CD4-IgG2), tetrameric CD4-based molecule (from UniProt P01730 26-204; P01730 26-203) (Fc fusion)” registered a 50% titer, HIV-1MN pseudoviruses (n=22) of 0.01 µg/mL and a 90% titer, HIV-1MN pseudoviruses (n=22) of 0.05 µg/mL. Further, in experiment [2], the 50% neutralization, HIV-1JR-FL Env-pseudotyped virus on U87.CD4 co-receptor cells (mean titer, n=29) was 0.11 µg/mL; the 50% neutralization, PBMC-grown HIV-1JR-FL in PBMC assay (n=14) worked out at 0.32 µg/mL; the 90% neutralization, HIV-1JR-FL pseudovirus came out at 0.72 µg/mL; the 90% neutralization, replication-competent HIV-1JR-FL came out at 1.32 µg/mL.
